{"source": "PubChem BioAssay AID624099 (ICCB-Longwood, 2012)", "screen": "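Knock-downs relieving repression by E2 of an HPV18 LCR luciferase reporter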 (primary screen)", "system": "human C33A cervical carcinoma cells (HPV-negative) stably expressing BPV1 E2 and an HPV18 LCR luciferase reporter", "knock-down reagent": "siRNA pool against human genes, 40 nM", "duration": "72 h", "measured": "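HPV18 LCR reporter light per well, converted to plate-wise z-scores that exclude control wells, and averaged over triplicate plates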", "direction": "mean z-score and z-score: higher = stronger reporter signal, weaker E2 silencing", "rule for the call": "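Mean z ≥ 2 together with z ≥ 2 in two or more of the three replicates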", "note": "The deposit covers about 21,000 reagents; below is a random part of them. In the full data, 497 (2.4%) were called active. 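Higher z means weaker E2 silencing; only reporter increases were scored, and knock-downs that hurt cell survival may mask genuine repressor factors.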 No sequences are given here."}
{"Gene": "FCER2", "mean z-score": -0.5, "z-score, replicate A": -0.51, "z-score, replicate B": -0.33, "z-score, replicate C": -0.64, "call": "inactive"}
{"Gene": "CDK16", "mean z-score": 1.97, "z-score, replicate A": 1.8, "z-score, replicate B": 2.16, "z-score, replicate C": 1.95, "call": "inactive"}
{"Gene": "MIR7-3HG", "mean z-score": -0.26, "z-score, replicate A": -0.46, "z-score, replicate B": -0.09, "z-score, replicate C": -0.24, "call": "inactive"}
{"Gene": "ANKRD37", "mean z-score": 0.63, "z-score, replicate A": 0.9, "z-score, replicate B": 0.43, "z-score, replicate C": 0.57, "call": "inactive"}
{"Gene": "LEPR", "mean z-score": -0.56, "z-score, replicate A": -0.59, "z-score, replicate B": -0.53, "z-score, replicate C": -0.58, "call": "inactive"}
{"Gene": "APOD", "mean z-score": 0.11, "z-score, replicate A": -0.06, "z-score, replicate B": -0.18, "z-score, replicate C": 0.58, "call": "inactive"}
{"Gene": "SPTSSB", "mean z-score": -0.27, "z-score, replicate A": -0.36, "z-score, replicate B": -0.25, "z-score, replicate C": -0.2, "call": "inactive"}
{"Gene": "TLK2", "mean z-score": 1.02, "z-score, replicate A": 1.14, "z-score, replicate B": 0.92, "z-score, replicate C": 0.99, "call": "inactive"}

Individual results from above:
For “mean z-score”, LEPR shows -0.56
Result for SPTSSB under “call”: inactive

Next results follow:
{"Gene": "ARL6IP5", "mean z-score": -0.03, "z-score, replicate A": -0.18, "z-score, replicate B": -0.03, "z-score, replicate C": 0.12, "call": "inactive"}
{"Gene": "CD1B", "mean z-score": 1.28, "z-score, replicate A": 1.33, "z-score, replicate B": 1.38, "z-score, replicate C": 1.14, "call": "inactive"}
{"Gene": "CDK9", "mean z-score": -0.98, "z-score, replicate A": -1.17, "z-score, replicate B": -1.32, "z-score, replicate C": -0.44, "call": "inactive"}
{"Gene": "DUSP13B", "mean z-score": -1.32, "z-score, replicate A": -1.15, "z-score, replicate B": -1.47, "z-score, replicate C": -1.34, "call": "inactive"}
{"Gene": "LOC123397 (retired record)", "mean z-score": 0.05, "z-score, replicate A": -0.19, "z-score, replicate B": 0.34, "z-score, replicate C": 0.02, "call": "inactive"}
{"Gene": "TES", "mean z-score": -1.07, "z-score, replicate A": -0.97, "z-score, replicate B": -1.31, "z-score, replicate C": -0.92, "call": "inactive"}
{"Gene": "UBA3", "mean z-score": 0.86, "z-score, replicate A": 1.34, "z-score, replicate B": 0.61, "z-score, replicate C": 0.64, "call": "inactive"}
{"Gene": "RRAS", "mean z-score": 1.12, "z-score, replicate A": 1.43, "z-score, replicate B": 1.09, "z-score, replicate C": 0.83, "call": "inactive"}
{"Gene": "RASAL1", "mean z-score": 0.2, "z-score, replicate A": 0.1, "z-score, replicate B": 0.61, "z-score, replicate C": -0.11, "call": "inactive"}
{"Gene": "TTPAL", "mean z-score": 3.02, "z-score, replicate A": 2.94, "z-score, replicate B": 2.97, "z-score, replicate C": 3.14, "call": "active"}
{"Gene": "SUOX", "mean z-score": 0.31, "z-score, replicate A": 0.19, "z-score, replicate B": 0.51, "z-score, replicate C": 0.22, "call": "inactive"}
{"Gene": "CUL9", "mean z-score": 0.01, "z-score, replicate A": 0.01, "z-score, replicate B": 0.17, "z-score, replicate C": -0.14, "call": "inactive"}
{"Gene": "ZNF705A", "mean z-score": 0.58, "z-score, replicate A": 0.72, "z-score, replicate B": 0.21, "z-score, replicate C": 0.81, "call": "inactive"}
